Test system: six mutated 3CL^pros (G15S, T21I, L89F, K90R, P132H, and L205V)
Experiment: FRET-based 3CLpro enzymatic inhibition assay, six mutants as a group
Conditions: range over G15S

With `CC(C)(C)[C@H](NC(=O)C(F)(F)F)C(=O)N1CC2(C[C@H]1C(=O)N[C@H](C#N)C[C@@H]1CCNC1=O)SCCS2` [compound 9, simnotrelvir] the IC50 was 8 to 13 nM.

From article PMC10575921 (Nature Communications, 2023)
